Anti-infective test results gathered from many reports (values: NIAID ChemDB through PubChem).

Shared fields: whole-cell or culture tests; agent: HIV-1; read by: MTT; read-out: EC50

Blank or dashed fields: not listed here. Conditions beyond the fields shown may differ between rows. ECn: concentration that inhibits the pathogen or its effect by n%.

compound	strain	mutations	cells	value
COc1ccc(N(C)C(=O)[C@H](Cc2cc(F)cc(F)c2)NC(=O)CN2CCN(S(=O)(=O)c3ccc([N+](=O)[O-])cc3)CC2=O)cc1	IIIB		MT-4	1.01 µM
C/C(=N\Nc1nc(-c2ccc(Cl)cc2)cs1)c1ccc(-c2ccc(Br)cc2)cc1	IIIB		MT-4	>10.23 µM
NC1=Nn2c(nnc2-c2ccc(Cl)c(Cl)c2)SC1	IIIB		MT-4	>2.7 µg/mL
C[C@]12CCC3C(CC=C4C[C@@H](O)CC[C@@]43C)C1CCC2C(=O)/C=C/c1ccc2c(c1)Cc1ccccc1-2	IIIB		MT-4	>7.62 µM
O=c1nccc(NC(=S)NCCc2ccccc2)[nH]1	IIIB		MT-2	0.125 µM
COc1ccc(N(C)C(=O)[C@H](Cc2cc(F)cc(F)c2)NC(=O)CN2CCN(S(=O)(=O)c3ccc(N)cc3)CC2=O)cc1	IIIB		MT-4	0.12 µM
N#CCC1Nc2ccccc2S(=O)(=O)n2cccc21	IIIB		MT-4	122 µM
COc1ccc(N(C)C(=O)[C@H](Cc2ccccc2)NC(=O)c2cccc(-c3cn(C4CC(n5cc(C)c(=O)[nH]c5=O)OC4CO)nn3)c2)cc1	NL4-3		TZM-bl	>29.42 µM
COc1ccc(C(=O)/C=C/c2ccc(O)cc2)c(O)c1	IIIB		MT-4	>400 µM
Cc1ccc(/C=N/Nc2nc(-c3ccc(Br)cc3)cs2)cc1	IIIB		MT-4	>125 µM
C=Cn1cc(C(=O)O)c(=O)c2ccc(N3CCN(c4nc5ccccc5s4)CC3)nc21	IIIB		MT-4	0.02 µM
CC(NC(=S)Nc1nc2ccccc2s1)c1ccccc1	IIIB	EFV-resistant	MT-4	>38 µM
Cc1cc(C#CCCO)cc(C)c1Oc1ccnc(Nc2ccc(C#N)cc2)n1	IIIB	F227L + V106A	MT-4	1.684 µM
CCOCn1c(Cc2ccc(OC)c(OC)c2)c(CC)c(=O)[nH]c1=O	A17	K103N/Y181C	MT-4	>100 µM
Nc1ccn([C@H]2CC[C@@H](CO)O2)c(=O)n1	IIIB		MT-4	1.113 µM
COc1ccc(-c2cc(N)nc(=O)n2C)cc1OC	IIIB		MT-4	>14.23 µM
CCc1c(Cc2cc(C)cc(C)c2)n(COCC2CC2)c(=O)[nH]c1=O	A17	K103N/Y181C	MT-4	>51 µM
O=C1CC2CCC1C1C(=O)N(CCCBr)C(=O)C21			MT-4	>100 µM
COc1ccc(N(C)C(=O)[C@H](Cc2cc(F)cc(F)c2)NC(=O)CN2CCN(S(=O)(=O)c3cccc(C)c3)CC2=O)cc1	IIIB		MT-4	0.91 µM
Cc1cc(C(C)(C)C)ccc1NC(=S)Nc1nc2ccccc2s1	IIIB		MT-4	>8.6 µM
CCc1c(Cc2cc(C)cc(C)c2)n(COCCCc2ccccc2)c(=O)[nH]c1=O	EFVR	K103R/V179D/P225H	MT-4	>43 µM
COc1ccc(C(=O)/C=C/c2ccc(Br)cc2)c(O)c1	IIIB		MT-4	>400 µM
O=C1CC2CCC1C1C(=O)N(CCCN3CCN(c4ccccc4O)CC3)C(=O)C21			MT-4	>100 µM
C=Cn1cc(C(=O)O)c(=O)c2ccc(N3CCN(c4ccccn4)CC3)nc21	IIIB		MT-4	0.16 µM
O=C(/C=C/c1ccc(Cl)cc1)c1ccccc1O	IIIB		MT-4	>400 µM
Cc1cc(/C=C/C#N)cc(C)c1Oc1nc(NC2CCN(Cc3cccc(Cl)c3)CC2)nc2ccsc12	IIIB	NNRTI-resistant (RT Y188L)	MT-4	0.17 µM
Cn1cc(C(=O)O)c(=O)c2ccc(N3CCN(c4ccccn4)CC3)nc21	IIIB		MT-4	0.06 µM
COc1ccc(N(C)C(=O)C(Cc2cc(F)cc(F)c2)NC(=O)c2cn(C3CC(n4cc(C)c(=O)[nH]c4=O)OC3CO)nn2)cc1	NL4-3		TZM-bl	>15.63 µM
COc1ccc(-c2ccc(N=Nc3c(N)nc(=O)n(C)c3-c3ccc(OC)c(OC)c3)cc2)cc1OC	IIIB		MT-4	>1.63 µM
O=C1/C(=C\c2ccc(Cl)cc2Cl)N(CCc2cccs2)C(=S)N1CCc1cccs1	IIIB		MT-4	>67.9 µg/mL
O=[N+]([O-])c1ccc(-c2csc(N/N=C/c3ccccn3)n2)cc1	IIIB		MT-4	>17.3 µM
Cn1c2ccccc2c(=O)c2c(O)cccc21	IIIB		MT-4	>15 µg/mL
COc1ccc(/C=C/C(=O)c2ccc(OC)cc2OC)cc1	IIIB		MT-4	>400 µM
COc1ccccc1N1CCN(CCCCN2C(=O)C3C4CCC(C(=O)C4)C3C2=O)CC1			MT-4	>100 µM
Nc1cc(O)ccc1-c1nn2c(-c3ccc(O)c(Cl)c3Cl)nnc2s1	IIIB		MT-4	>19.61 µg/mL
Cc1cc(/C=C/C#N)cc(C)c1Oc1nc(NC2CCN(Cc3cccc(F)c3)CC2)nc2ccsc12	IIIB	NNRTI-resistant (RT Y188L)	MT-4	0.159 µM
O=[N+]([O-])c1ccc(/C=N/Nc2nc(-c3ccc([N+](=O)[O-])cc3)cs2)cc1	IIIB		MT-4	>73.58 µM
O=C1CC2CCC1C1C(=O)N(CC(O)CN3CCCCC3)C(=O)C21			MT-4	>100 µM
N#Cc1ccc(Nc2nc(Oc3c(F)cc(-c4ccc(C#N)cc4)cc3F)c3sccc3n2)cc1	IIIB	Y188L	MT-4	>20.3 µM
S=C(NCc1ccco1)Nc1nc2ccccc2s1	IIIB		MT-4	>67 µM
COc1cc(CCNC(=S)Nc2cccc(C)n2)cc(OC)c1OC	IIIB		MT-2	8.15 µM
CN(C)c1ccc(/C=C/C(=O)C2CCC3C4CC=C5C[C@@H](O)CC[C@]5(C)C4CC[C@]23C)c(Cl)c1	IIIB		MT-4	>12.95 µM
COc1ccc([C@H]2CC23N=C(c2ccccc2)OC3=O)cc1OC(C)=O	IIIB		MT-4/C8166 + MT-4	26.3 µg/mL
NS(=O)(=O)c1ccc(NC(=S)NCCc2ccccc2F)cc1	IIIB		MT-2	95.8 µM
CCN(CC)c1c(N=Nc2ccc(-c3ccc(OC)c(OC)c3)cc2)c(N)nc(=O)n1C	IIIB		MT-4	>25.23 µM
Cc1cc(C)c(Oc2ccnc(NC3CCN(C(=O)c4cc5cc(NS(C)(=O)=O)ccc5[nH]4)CC3)n2)c(C)c1	IIIB		MT-4	0.0086 µM
C=C1CC[C@@H](OC(C)=O)[C@@]2(C)C[C@@H](OC(C)=O)C3=C(C(C)C)CC[C@]3(C)C[C@]12O	IIIB		MT-2	0.35 µM
Nc1ccc(-c2n[nH]c(=S)n2N)cc1	IIIB		MT-4	>12 µg/mL
O=C1/C(=C\c2ccc(C3=CC=C3)cc2)N(CCc2cccs2)C(=S)N1CCc1cccs1	IIIB		MT-4	>58.03 µg/mL
C=CCC(C(=O)O)c1c(-c2ccccc2)c2cc(Cl)ccc2[nH]c1=O			MT-4	12.4 µM
C[C@]12CCC3C(CC=C4C[C@@H](O)CC[C@@]43C)C1CCC2C(=O)/C=C/c1ccc(Br)cc1	IIIB		MT-4	>13.3 µM
O=C1CC2CCC1C1C(=O)N(CCCN3CCN(c4ccccc4)CC3)C(=O)C21			MT-4	>100 µM
CCc1c(Cc2ccc(C)cc2)n(COCCc2ccccc2)c(=O)[nH]c1=O	N119	Y181C	MT-4	>60 µM
Cc1ccc(CN2CCC(Nc3nc(Oc4c(C)cc(/C=C/C#N)cc4C)c4sccc4n3)CC2)cc1	IIIB	NNRTI-resistant (RT K103N)	MT-4	0.0112 µM
C[C@]12CCC3C(CC=C4C[C@@H](O)CC[C@@]43C)C1CCC2C(=O)/C=C/c1cc(Br)ccc1O	IIIB		MT-4	>12.05 µM
O=C1CS/C(=N\c2nc3ccccc3s2)N1c1ccccc1Br	IIIB		MT-4	>9 µM
Cc1cc(/C=C/C#N)cc(C)c1Oc1nc(NC2CCN(Cc3ccccc3Br)CC2)nc2ccsc12	IIIB	NNRTI-resistant (RT Y188L)	MT-4	0.15 µM
COc1ccc(N(C)C(=O)[C@H](Cc2cc(F)cc(F)c2)NC(=O)CN2CCN(S(=O)(=O)c3cccc(Br)c3)CC2=O)cc1	IIIB		MT-4	0.86 µM
C[C@]12CCC3C(CC=C4CC(O)CC[C@@]43C)C1CCC2C(=O)/C=C/c1ccc(/C=C/C(=O)C2CCC3CCC4C(CC=C5C[C@@H](O)CC[C@@]54C)[C@]32C)cc1	IIIB		MT-4	>47.75 µM
O=C1/C(=C\c2ccc(SC3=CC=C3)cc2)N(CCc2cccs2)C(=S)N1CCc1cccs1	IIIB		MT-4	102 µg/mL
N#Cc1ccc(-c2csc(N/N=C/c3ccccn3)n2)cc1	IIIB		MT-4	>1.71 µM
CCOCn1c(Cc2ccc(C)cc2)c(CC)c(=O)[nH]c1=O	A17	K103N/Y181C	MT-4	>100 µM
Clc1ccc(-c2nnc3sc(-c4cnccn4)nn23)cc1Cl	IIIB		MT-4	>2.11 µg/mL
COc1ccc(OC)c(CCNC(=S)Nc2ccnc(=O)[nH]2)c1F	IIIB		MT-2	65.2 µM
Cc1ccnc2c1NC(=O)c1cccnc1N2C1CC1		AZT-resistant (67N 70R 215F 219Q)	MT-4	0.07 µM
Cc1ccccc1N1CCN(CCCCN2C(=O)C3C4CCC(C(=O)C4)C3C2=O)CC1			MT-4	>100 µM
O=C1/C(=C\c2ccc(F)cc2)N(CCc2cccs2)C(=S)N1CCc1cccs1	IIIB		MT-4	>93.1 µg/mL
CN(C)c1c(N=Nc2ccc(Cl)cc2)c(N)nc(=O)n1C	IIIB		MT-4	>28.24 µM
Cc1cc(C#N)cc(C)c1Oc1nc(NC2CCN(Cc3ccc(S(N)(=O)=O)cc3)CC2C(=O)O)nc2ccsc12	IIIB	NNRTI-resistant (RT Y188L)	MT-4	2.97 µM
CCc1c(Cc2ccc(OC)c(OC)c2)n(COCCCc2ccccc2)c(=O)[nH]c1=O	N119	Y181C	MT-4	>38 µM
Cn1cc(C(=O)O)c(=O)c2cc(N)c(N3CCN(c4nc5ccccc5s4)CC3)nc21	IIIB		MT-4	>0.029 µM
CCOC(=O)c1ccc(-c2cc(N)nc(=O)n2C)cc1	IIIB		MT-4	>75.23 µM
CCc1c(Cc2ccc(OC)c(OC)c2)n(COCC2CC2)c(=O)[nH]c1=O	N119	Y181C	MT-4	>100 µM
Cc1ccnc2c1NC(=O)c1cccnc1N2C1CC1	IIIB		MT-4	0.19 µM
CCCNc1c(N=Nc2ccc(-c3ccc(OC)c(OC)c3)cc2)c(N)nc(=O)n1C	IIIB		MT-4	>36.76 µM
O=S1(=O)c2ccccc2-n2cnnc2-c2cccn21	IIIB		MT-4	46 µM
Cc1cc(-c2ccc(C#N)cc2)cc(Cl)c1Oc1nc(Nc2ccc(C#N)cc2)nc2ccsc12	IIIB	F227L V106A	MT-4	0.4056 µM
COc1ccc(/C=C/C(=O)c2ccccc2O)cc1OC	IIIB		MT-4	>400 µM
O=S1(=O)c2ccccc2NC(CO)c2cccn21	IIIB		MT-4	>200 µM
Cn1c(N(Cc2ccccc2)Cc2ccccc2)c(N=Nc2ccc(Cl)cc2)c(N)nc1=O	IIIB		MT-4	>78.59 µM
Cc1cn([C@H]2C[C@H](N=[N+]=[N-])[C@@H](CO)O2)c(=O)[nH]c1=O		AZT-resistant (67N 70R 215F 219Q)	MT-4	0.3 µM
O=c1nccc(NC(=S)NCCc2ccccc2F)[nH]1	IIIB		MT-2	88 µM
Oc1ccc(-c2nnc3sc(-c4ccc[nH]4)nn23)c(Cl)c1Cl	IIIB		MT-4	>68.48 µg/mL
CS(=O)(=O)OCC1Nc2ccccc2S(=O)(=O)n2cccc21	IIIB		MT-4	>130 µM
Clc1ccc(-c2csc(N/N=C/c3ccccn3)n2)cc1	IIIB		MT-4	>2.19 µM
O=C(CSc1snnc1-c1ccccc1)Nc1ccccc1F	IIIB		MT-4	>361.8 µM
CC(C)NCC(O)CN1C(=O)C2C3CCC(C(=O)C3)C2C1=O			MT-4	>100 µM
N#Cc1ccc(Nc2nc(Oc3ccc(-c4ccc(C#N)cc4)c(F)c3F)c3sccc3n2)cc1	IIIB	K103N	MT-4	0.0094 µM
Cc1cc(/C=C/C#N)cc(C)c1Oc1nc(NC2CCN(Cc3ccccc3C#N)CC2)nc2ccsc12	RES056		MT-4	0.319 µM
CCOC(=O)C12CC(=O)N1c1ccccc1S(=O)(=O)n1cccc12	IIIB		MT-4	>23 µM

9 of the rows above, restated:

compound	strain	mutations	cells	value
COc1ccc(-c2ccc(N=Nc3c(N)nc(=O)n(C)c3-c3ccc(OC)c(OC)c3)cc2)cc1OC	IIIB		MT-4	>1.63 µM
COc1ccc([C@H]2CC23N=C(c2ccccc2)OC3=O)cc1OC(C)=O	IIIB		MT-4/C8166 + MT-4	26.3 µg/mL
CCc1c(Cc2ccc(OC)c(OC)c2)n(COCCCc2ccccc2)c(=O)[nH]c1=O	N119	Y181C	MT-4	>38 µM
CCN(CC)c1c(N=Nc2ccc(-c3ccc(OC)c(OC)c3)cc2)c(N)nc(=O)n1C	IIIB		MT-4	>25.23 µM
Cn1c(N(Cc2ccccc2)Cc2ccccc2)c(N=Nc2ccc(Cl)cc2)c(N)nc1=O	IIIB		MT-4	>78.59 µM
CCOC(=O)C12CC(=O)N1c1ccccc1S(=O)(=O)n1cccc12	IIIB		MT-4	>23 µM
O=S1(=O)c2ccccc2-n2cnnc2-c2cccn21	IIIB		MT-4	46 µM
CS(=O)(=O)OCC1Nc2ccccc2S(=O)(=O)n2cccc21	IIIB		MT-4	>130 µM
Cc1cc(C)c(Oc2ccnc(NC3CCN(C(=O)c4cc5cc(NS(C)(=O)=O)ccc5[nH]4)CC3)n2)c(C)c1	IIIB		MT-4	0.0086 µM